Test results as given in paper PMC4598760 (Biomolecules, 2015).
Like-named read-outs stand apart in the source and are kept apart here.

System: hemagglutinin (HA) on immobilized influenza virus A/Mem71 (H3N1)
Assay type: binding, influenza A virus A/Memphis/1971

Row | Structure (SMILES) | ΔH [kcal/mol] | ΔS [kcal/mol·K] | TΔS (288 K) [kcal/mol] | ΔG (288 K) [kcal/mol] | TΔS (293 K) [kcal/mol] | ΔG (293 K) [kcal/mol] | TΔS (296 K) [kcal/mol] | ΔG (296 K) [kcal/mol] | TΔS (298 K) [kcal/mol] | ΔG (298 K) [kcal/mol]
1 | CC(=O)N[C@H]1[C@H]([C@H](O)[C@H](O)CO)O[C@@](OC[C@H]2O[C@@H](O[C@H]3[C@H](O)[C@@H](O)C(O)O[C@@H]3CO)[C@H](O)[C@@H](O)[C@H]2O)(C(=O)O)C[C@@H]1O (stereo partly drawn) [α2-6 sialyllactose (OS-21), α2-6-sialyllactose] | -32.2 | −0.10 | -29.2 | -2.87 | -29.7 | -2.63 | -30.0 | -2.21 | -30.2 | -1.82
2 | CC(=O)N[C@H]1[C@H]([C@H](O)[C@H](O)CO)O[C@@](O[C@H]2[C@@H](O)[C@@H](CO)O[C@@H](O[C@H]3[C@H](O)[C@@H](O)C(O)O[C@@H]3CO)[C@@H]2O)(C(=O)O)C[C@@H]1O (stereo partly drawn) [α2-3 sialyllactose (OS-11), α2-3-sialyllactose] | -41.4 | −0.13 | -37.9 | -3.44 | -38.6 | -2.96 | -39.0 | -2.35 | -39.2 | -2.16
